Experimental findings from publication PMC9964242 (Vaccines, 2023) are described below.

This assay concerns influenza A/chicken/Egypt/N12640A/2016 (H5N1). As to the kind of experiment: Antiviral crystal violet assay against highly pathogenic avian influenza A/H5N1 (IC50). In kind it is cell-based. The conditions noted are these: virus H5N1.

Compound `CC[C@H](CC[C@@H](C)[C@H]1CC[C@H]2[C@@H]3CC=C4C[C@@H](O[C@@H]5O[C@H](CO)[C@@H](O)[C@H](O)[C@H]5O)CC[C@]4(C)[C@H]3CC[C@]12C)C(C)C` [β-sitosterol-O-glucoside] showed an SI (selectivity index = CC50/IC50) of 2860.

Regarding `CC[C@H](CC[C@@H](C)[C@H]1CC[C@H]2[C@@H]3CC=C4C[C@@H](O)CC[C@]4(C)[C@H]3CC[C@]12C)C(C)C` [β-sitosterol], the SI (selectivity index = CC50/IC50) turned out to be 33600.
